Reference: BindingDB's records for 17417831
pIC50: −log10 of the molar value.

Amino acid sequences for entries named in this document (tags omitted). Residues count along the entry.
UniProt Q45894, 1-425: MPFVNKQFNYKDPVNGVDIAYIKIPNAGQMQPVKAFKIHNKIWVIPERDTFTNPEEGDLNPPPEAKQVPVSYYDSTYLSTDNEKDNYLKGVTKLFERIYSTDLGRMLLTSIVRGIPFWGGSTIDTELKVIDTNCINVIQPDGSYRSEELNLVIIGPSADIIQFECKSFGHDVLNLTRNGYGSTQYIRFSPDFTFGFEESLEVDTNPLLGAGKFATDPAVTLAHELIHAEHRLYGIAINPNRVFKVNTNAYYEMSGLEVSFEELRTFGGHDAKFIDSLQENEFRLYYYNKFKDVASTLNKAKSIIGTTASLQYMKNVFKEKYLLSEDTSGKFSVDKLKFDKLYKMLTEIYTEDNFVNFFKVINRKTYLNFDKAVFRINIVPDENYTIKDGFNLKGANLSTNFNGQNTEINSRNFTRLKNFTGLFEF

biological target: Botulinum neurotoxin type A2 [1-425] (Clostridium botulinum, UniProt Q45894); conditions: pH 7.3

| SMILES | pIC50 |
| --- | --- |
| COC(=O)CC[C@@H](C)[C@H]1CCC2C3C(C[C@H](OC(C)=O)[C@@]21C)[C@@]1(C)CC[C@@H](NCCNc2ccnc4cc(Cl)ccc24)C[C@H]1C[C@H]3OC(C)=O (stereo partly drawn) | 5.15 |
| COC(=O)CC[C@@H](C)[C@H]1CCC2C3C(C[C@H](OC(C)=O)[C@@]21C)[C@@]1(C)CC[C@H](NCCNc2ccnc4cc(Cl)ccc24)C[C@H]1C[C@H]3OC(C)=O (stereo partly drawn) | 4.77 |
| CC(=O)O[C@@H]1CC[C@]2(C)C3C[C@H](OC(C)=O)[C@@]4(C)C(CC[C@@H]4[C@H](C)CCCNCCNc4ccnc5cc(Cl)ccc45)C3[C@H](OC(C)=O)C[C@@H]2C1 (stereo partly drawn) | 5.00 |
